The record followed here is patent US12559474B2, “Triazine derivatives having virus replication inhibitory activity and pharmaceutical composition comprising the same” (priority 2021, dated 2026).

For one experiment, the target named is SARS-CoV-2 3CL protease (Severe acute respiratory syndrome coronavirus 2, UniProt P0DTD1). The note with it: 50% SARS-CoV-2 3CL protease inhibitory concentration, given as class symbols.
The next experiment deals with SARS-CoV-2. Kind of experiment: Inhibitory activity of cytopathic effect (CPE) in Vero E6/TMPRSS2 cells infected with SARS-CoV-2. Format: cell-based. The settings on record: 50% SARS-CoV-2 infected cell death inhibitory concentration; VeroE6/TMPRSS2 cells, 3 days culture; class symbols. A general note: Protection from cytopathic effect is a common read-out in antiviral testing.

pEC50, pIC50: −log10 of the molar value.

Take `Cc1cncc(-n2c(=O)nc(Nc3cc4cn(C)nc4cc3Cl)n(Cc3cccc(C#N)c3)c2=O)c1`: the negative logarithm of the IC50 (pIC50) against SARS-CoV-2 3CL protease was > 7.00. Also, in the experiment on SARS-CoV-2, the negative logarithm of the EC50 (pEC50) was > 6.00.
With `Cc1cncc(-n2c(=O)nc(Nc3cc4cn(C)nc4cc3Cl)n(Cc3cccc(Cl)c3)c2=O)c1`, the pIC50 against SARS-CoV-2 3CL protease is > 7.00. In the experiment with SARS-CoV-2, the negative-log EC50 (pEC50) was > 6.00.
Turning to `O=c1[nH]cccc1Cn1c(=O)nc(Nc2cc3cn([C@H]4CCC[C@@H]4O)nc3cc2Cl)n(Cc2cc(F)c(F)c(F)c2)c1=O` (relative stereo), the negative-log IC50 (pIC50) against SARS-CoV-2 3CL protease was > 7.00. The pEC50 in the experiment with SARS-CoV-2 is 5.00 to 6.00.
For `Cc1cncc(-n2c(=O)nc(Nc3ccc4nc(NCC(F)F)sc4c3)n(Cc3ccc(F)c(C#N)c3)c2=O)c1`, the negative logarithm of the IC50 (pIC50) at SARS-CoV-2 3CL protease is > 7.00. In addition, in the experiment on SARS-CoV-2, the negative-log EC50 (pEC50) was 5.00 to 6.00.

As usually defined, the pIC50 is −log10 of the IC50, conventionally taken in molar units. In general, pEC50 refers to the negative decadic logarithm of the EC50, by convention in mol/L.
